Test results taken from PMC3037356, “BosR (BB0647) Controls the RpoN-RpoS Regulatory Pathway and Virulence Expression in Borrelia burgdorferi by a Novel DNA-Binding Mechanism” (PLoS Pathogens, 2011).

The sequences below were run against BosR (rBosR) (UniProt O51592) (assay: EMSA). Conditions: 20 mM Hepes pH 7.5, 50 mM KCl, 1 mM MgCl2, 1 mM DTT, 5% glycerol, 100 ug/ml BSA, 50 ug/ml poly[d(A-T)], 30 fmol probe in 20 ul, 37 C 30 min; recombinant …; residues 1-176; label: digoxigenin 3' end.
“AGTGTAAAAATTATAATCAATTTTTTCATTAAATATCCTTTTTATTTATTATGGTATTAA (double strand) [ZM217 (PnapA2)]”: binds.
“ATTTTATATCCTATTTAGTTTAAAACCATTTTTAAATTAAATTGGCACAGTTTTTGCATG (double strand) [ZM212 (BS2 5')]”: binds.
“TGGTTTAGATTTAATTTTTTTCTCAATTCAGCAATTTCTGAATATAGAATTTTCATATCT (double strand) [ZM215 (PnapA1)]”: binds.

Construct, isoform or probe ends are uncertain for at least one entry. At least one verdict rests on a figure or table, not on a statement of the authors.
